Results of unrelated studies side by side (data: NIAID ChemDB).

Shared fields: tests in culture

ECn: concentration that inhibits the pathogen or its effect by n%. A number after MIC or MFC names an inhibition level or a share of isolates. An empty or dashed field is not shown. Conditions beyond the fields shown may differ between rows. Inhibition is in % at the dose shown (toxicity tests: loss of growth or viability).

| structure | strain or isolate | cells | agent | dose | method | measure | value |
|---|---|---|---|---|---|---|---|
| O=C(CC(=O)Nc1cc(C(F)(F)F)cc(C(F)(F)F)c1)Nc1ccc(C(F)(F)F)cc1 | KL21 |  | Klebsiella pneumoniae |  |  | MIC | >300 µM |
| O=S(=O)([O-])c1ccc(NS(=O)(=O)c2ccccc2)c2c(S(=O)(=O)[O-])cccc12 |  | Human embryonic lung cells | Rhinovirus | 5 µg/mL | cytopathic effect | inhibition | 30% |
| CC(C)(O)c1cn(-c2ccc([N+](=O)[O-])cc2)nn1 | URM 4609 |  | Candida albicans | 2048 µg/mL | broth dilution | inhibition | 0% |
| C/C=C\[C@@H]1C[C@H](C(=O)O)N[C@H]1[C@@H](NC(C)=O)[C@](C)(CCC)OC | Memphis/20/96 | MDCK | Influenza B virus |  | plaque count | EC50 | <0.01 µg/mL |
| C=Cc1cn([C@@H]2O[C@H](CO)[C@@H](O)[C@@H]2O)c(=O)[nH]c1=O | YS | HELF | Varicella zoster virus | 0.1 µg/mL | plaque count | inhibition | 3% |
| O=S(=O)(O)CO |  | Human amnion AV3 cells | Herpes simplex virus | 5 µg/mL | cytopathic effect | inhibition | 0% |
| Cn1cc(C(=O)NCc2ccc(Cl)cc2)c(=O)c2cc(CN3CCOCC3)ccc21 | SA | HFF | Human cytomegalovirus | 6.9 µM | plaque count | inhibition | 90% |
| C=CCc1ccc(OC)c(OC)c1 | 2621 |  | Candida glabrata |  | turbidity | MIC90 | 350 µg/mL |
| O=S(=O)([O-])c1cc(S(=O)(=O)[O-])c2cc(NS(=O)(=O)c3ccccc3)ccc2c1 |  | Human embryonic lung cells | Rhinovirus | 50 µg/mL | cytopathic effect | inhibition | 15% |
| O=[N+]([O-])c1ccc(C=Nc2ccccc2O)cc1 | 23/10993 |  | Cryptococcus gattii |  |  | MIC99 | 8 µg/mL |
| CC(C)(O)c1cn(-c2ccc3ccccc3c2)nn1 | URM 4384 |  | Candida albicans | 2048 µg/mL | broth dilution | inhibition | 0% |
| CCc1nc2ccccc2c(=O)n1NC(=O)Nc1cc(C(F)(F)F)cc(C(F)(F)F)c1 | KL21 |  | Klebsiella pneumoniae |  |  | MIC | >300 µM |
| Nc1nc(=O)n([C@@H]2O[C@H](CO)[C@@H](O)[C@@H]2F)cc1I | YS | HELF | Varicella zoster virus | 0.01 µg/mL | plaque count | inhibition | 10% |
| O=C(NCCO)NNC(=O)Nc1cc(C(F)(F)F)cc(C(F)(F)F)c1 | KL21 |  | Klebsiella pneumoniae |  |  | MIC | >300 µM |
| Oc1ccccc1N=Cc1ccc(F)cc1 | ATCC 24065 |  | Cryptococcus gattii |  |  | MIC99 | 5.7 µg/mL |
| Nc1c(S(=O)(=O)O)cc2cc(S(=O)(=O)O)cc(O)c2c1O | TYPE 3 | Human embryonic lung cells | Adenovirus | 50 µg/mL | cytopathic effect | inhibition | 90% |
| CCOC(=O)c1ccc(OCCC2CCN(c3ccc(C)nn3)CC2)cc1 | FO 1-3774 (ICAM-1 receptor group 54) | KB | Rhinovirus |  | neutral red | EC50 | 0.108 µM |
| Cc1ccc(-n2cc(C(C)(C)O)nn2)cc1C | URM 4384 |  | Candida albicans | 2048 µg/mL | broth dilution | inhibition | 0% |
| Cc1cc(-c2ccc(N=Nc3c(N)c(S(=O)(=O)O)cc4cc(S(=O)(=O)O)ccc34)c(C)c2)ccc1N=Nc1c(N)ccc2cc(S(=O)(=O)O)ccc12 |  | Human conjunctiva cells | Herpes simplex virus | 10 µg/mL | cytopathic effect | inhibition | 100% |
| CCc1cn([C@@H]2O[C@H](CO)[C@@H](O)[C@@H]2O)c(=O)[nH]c1=O | HIRAI | HELF | Varicella zoster virus | 100 µg/mL | plaque count | inhibition | 47% |
| CC(C)(O)c1cn(-c2cccc3ccccc23)nn1 | URM 4263 |  | Candida krusei | 2048 µg/mL | broth dilution | inhibition | 0% |
| Cc1cc(-c2ccc(N=Nc3c(S(=O)(=O)O)cc4cc(S(=O)(=O)O)cc(N)c4c3O)c(C)c2)ccc1N=Nc1c(S(=O)(=O)O)cc2cc(S(=O)(=O)O)cc(N)c2c1O |  | Human amnion AV3 cells | Herpes simplex virus | 10 µg/mL | cytopathic effect | inhibition | 0% |
| CCOC(=O)c1c(C)nc(NCCCCNc2ccnc3cc(Cl)ccc23)nc1-c1ccccc1 | 23/10993 |  | Cryptococcus gattii |  |  | MIC99 | 5.7 µg/mL |
| Cc1cc(-c2ccc(N=Nc3ccc4c(S(=O)(=O)O)cc(S(=O)(=O)O)c(N)c4c3O)c(C)c2)ccc1N=Nc1ccc2c(S(=O)(=O)O)cc(S(=O)(=O)O)c(N)c2c1O |  | Human amnion AV3 cells | Herpes simplex virus | 10 µg/mL | cytopathic effect | inhibition | 80% |
| Oc1ccc(O)c(C=Nc2ccccc2O)c1 | 196L/03 |  | Cryptococcus gattii |  |  | MIC99 | 8 µg/mL |
| Cc1cn([C@@H]2O[C@H](CO)[C@@H](O)[C@@H]2O)c(=O)[nH]c1=O | HIRAI | HELF | Varicella zoster virus | 0.1 µg/mL | plaque count | inhibition | 75% |
| CCOC(=O)/C=C/[C@H](C[C@@H]1CCNC1=O)NC(=O)[C@@H](CC(=O)[C@@H](NC(=O)c1cc(C)on1)C(C)C)Cc1ccc(F)cc1 | Isolate 15 | OHIO HELA-I | Rhinovirus |  | cytopathic effect / visual reading | EC50 | 0.01 µg/mL |
| CCOC(=O)c1c(C)nc(OCCCNc2ccnc3cc(Cl)ccc23)nc1-c1ccccc1 | 27JF |  | Cryptococcus neoformans |  |  | MIC99 | 4 µg/mL |
| O=C(Nc1cc(C(F)(F)F)cc(C(F)(F)F)c1)NN1CCOCC1 | KL21 |  | Klebsiella pneumoniae |  |  | MIC | >300 µM |
| O=c1[nH]c(=O)n([C@H]2C[C@H](O)[C@@H](CO)O2)cc1I | Ohtomo | HELF | Varicella zoster virus | 0.1 µg/mL | plaque count | inhibition | 29% |
| NS(=O)(=O)O |  | Human amnion AV3 cells | Herpes simplex virus | 10 µg/mL | cytopathic effect | inhibition | 0% |
| CCC(CC)[C@H](NC(C)=O)[C@@H]1[C@H](O)[C@@H](C(=O)O)C[C@H]1N=C(N)N | B/Harbin/07.94 | MDCK | Influenza B virus |  |  | EC50 | 0.12 µM |

A second listing of 3 rows from above:

C=CCc1ccc(OC)c(OC)c1 ; strain or isolate: 2621 ; agent: Candida glabrata ; method: turbidity ; measure: MIC90 ; value: 350 µg/mL
O=[N+]([O-])c1ccc(C=Nc2ccccc2O)cc1 ; strain or isolate: 23/10993 ; agent: Cryptococcus gattii ; measure: MIC99 ; value: 8 µg/mL
CCC(CC)[C@H](NC(C)=O)[C@@H]1[C@H](O)[C@@H](C(=O)O)C[C@H]1N=C(N)N ; strain or isolate: B/Harbin/07.94 ; cells: MDCK ; agent: Influenza B virus ; measure: EC50 ; value: 0.12 µM